Laboratory results: PubChem BioAssay AID504761 (Drosophila RNAi Screening Center, 2011)
In all, the deposit lists about 22,000 reagents; this is an unselected part of those that have a named target and a result. Of all reagents, 116 (0.52%) got an active call. 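Calls depend on retest data that are not deposited; infection was ranked per plate without normalising between plates; the unit of the infection score is not given.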 Raw values are not corrected between plates. Reagents against one gene are numbered here. Not all columns of the deposit are shown. The record does not give: the amount of reagent, the time to read-out.

Screen: 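Insect host genes that dengue virus relies on to spread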 (primary screen)
Cell system: D.Mel-2 cells from Drosophila
Reagent: long dsRNA against Drosophila genes
Challenge: infection with dengue virus type 2; dose and infection time not stated
Detection: 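Per well on two replicate plates, imaging gave the percent of cells positive for viral envelope protein, ranked by infection, and a nuclear count of cells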
Reading the numbers: infection score: higher = more virus-infected cells; cell count: higher = more cells in the well
Rule for the call: 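Very low infection ranking in both replicate wells (chance probability at most 0.065), then a retest showing infection dropped 1.5-fold or more at p below 0.05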
Meaning of the calls: active = confirmed: knock-down lowers infection; inactive = not picked or not confirmed

Ir75c showed infection score, replicate 1 = 4.27; cell count, replicate 1 = 6446; inactive.
CG31454 #1 showed infection score, replicate 1 = 13.8; cell count, replicate 1 = 6585; inactive.
After knock-down of CG31454 #2 the results were infection score, replicate 1 = 2.22; cell count, replicate 1 = 6575; inactive.
CG31454 #3 gave infection score, replicate 1 = 4.01; cell count, replicate 1 = 5982; inactive.
unc79 #1 scored infection score, replicate 1 = 1.32; cell count, replicate 1 = 5984; inactive.
For unc79 #2, the values are infection score, replicate 1 = 4.96; cell count, replicate 1 = 6450; inactive.
With knock-down of Reg-2 #1, the record shows infection score, replicate 1 = 9.36; cell count, replicate 1 = 5864; inactive.
Reg-2 #2 gave infection score, replicate 1 = 12; cell count, replicate 1 = 6043; inactive.
Against Atpalpha the deposit lists infection score, replicate 1 = 3.84; cell count, replicate 1 = 6925; inactive.
For ppk13, the entry reads infection score, replicate 1 = 7.27; cell count, replicate 1 = 3481; inactive.
CG4116 #1 gave infection score, replicate 1 = 5.5; cell count, replicate 1 = 4524; inactive.
Against CG4116 #2, the values are infection score, replicate 1 = 4.79; cell count, replicate 1 = 1128; inactive.
With knock-down of CG44837 #1, the record shows infection score, replicate 1 = 2.79; cell count, replicate 1 = 5521; inactive.
For CG44837 #2, the values are infection score, replicate 1 = 1.69; cell count, replicate 1 = 6172; inactive.
For CG44837 #3, the entry reads infection score, replicate 1 = 3.42; cell count, replicate 1 = 6089; inactive.

Already shown: 2 of the entries above.
CG44837 #1 — infection score, replicate 1: 2.79; cell count, replicate 1: 5521; call: inactive
CG44837 #2 — infection score, replicate 1: 1.69; cell count, replicate 1: 6172; call: inactive
